From patent US20250319108A1, “COMBINATIONS” (AN2 Therapeutics, Inc., priority 2021, published 2025)

Test system: M. avium ATCC 700898
Assay type: cell-based
Details: for +EBO (2 × MIC) Resistance Frequency: drug at its selection concentration plus EBO at 2 × MIC; for Monotherapy Resistance Frequency: selection concentration CLR 32, RFB 2, AMK 128, EMB 24 mg/L
Protocol: Resistant colonies were confirmed by replica plating on agar plates containing antibiotic at the same concentration used to select resistance. Control plates containing no drug were prepared for inoculum determination. The RF was calculated by dividing the total CFU/mL of resistant colonies by the total CFU/mL of the inoculum.

Row | Structure (SMILES) | +EBO (2 × MIC) Resistance Frequency | Monotherapy Resistance Frequency
1 | CC[C@H]1OC(=O)[C@H](C)[C@@H](O[C@H]2C[C@@](C)(OC)[C@@H](O)[C@H](C)O2)[C@H](C)[C@@H](O[C@@H]2O[C@H](C)C[C@H](N(C)C)[C@H]2O)[C@](C)(OC)C[C@@H](C)C(=O)[C@H](C)[C@@H](O)[C@]1(C)O [CLR, Clarithromycin] | <1.49 × 10^−10 | 1.59 × 10^−7
2 | NCC[C@H](O)C(=O)N[C@@H]1C[C@H](N)[C@@H](O[C@H]2O[C@H](CN)[C@@H](O)[C@H](O)[C@H]2O)[C@H](O)[C@H]1O[C@H]1O[C@H](CO)[C@@H](O)[C@H](N)[C@H]1O [AMK, Amikacin] | <1.49 × 10^−10 | 1.21 × 10^−8
